{"source": "PubChem BioAssay AID624099, ICCB-Longwood, 2012", "assay": "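Knock-downs relieving repression by E2 of an HPV18 LCR luciferase reporter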 (primary screen)", "cell system": "human C33A cervical carcinoma cells (HPV-negative) stably expressing BPV1 E2 and an HPV18 LCR luciferase reporter", "reagent": "siRNA pool against human genes, 40 nM", "time to read-out": "72 h", "measurement": "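Per-well luciferase luminescence, z-scored on each plate against the plate mean and SD with control wells left out, then averaged across three replicate plates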", "scale": "mean z-score and z-score: higher = stronger reporter signal, weaker E2 silencing", "rule for the call": "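Mean z ≥ 2 together with z ≥ 2 in two or more of the three replicates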", "note": "The whole screen tested about 21,000 reagents; below is a random part of them. 497 of them (2.4%) were called active. 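Higher z means weaker E2 silencing; only reporter increases were scored, and knock-downs that hurt cell survival may mask genuine repressor factors.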 Entries without a mark were called inactive."}
{"gene":"BHMT","mean z-score":0.6,"z-score, replicate A":1.07,"z-score, replicate B":0.11,"z-score, replicate C":0.6}
{"gene":"MRPL10","mean z-score":-1.55,"z-score, replicate A":-1.63,"z-score, replicate B":-1.43,"z-score, replicate C":-1.59}
{"gene":"PRSS36","mean z-score":-0.99,"z-score, replicate A":-0.83,"z-score, replicate B":-1.13,"z-score, replicate C":-1.01}
{"gene":"PCYT1A","mean z-score":0.71,"z-score, replicate A":0.55,"z-score, replicate B":0.74,"z-score, replicate C":0.84}
{"gene":"TRAPPC1","mean z-score":1.53,"z-score, replicate A":1.67,"z-score, replicate B":1.72,"z-score, replicate C":1.19}
{"gene":"DRAXIN","mean z-score":-0.16,"z-score, replicate A":-0.51,"z-score, replicate B":-0.16,"z-score, replicate C":0.19}
{"gene":"CDCA3","mean z-score":0.34,"z-score, replicate A":0.46,"z-score, replicate B":0.16,"z-score, replicate C":0.39}
{"gene":"TBPL1","mean z-score":-0.07,"z-score, replicate A":-0.04,"z-score, replicate B":-0.02,"z-score, replicate C":-0.14}
{"gene":"RAB3IP","mean z-score":0.78,"z-score, replicate A":0.85,"z-score, replicate B":0.57,"z-score, replicate C":0.91}
{"gene":"ZNF229","mean z-score":-0.4,"z-score, replicate A":-0.33,"z-score, replicate B":-0.6,"z-score, replicate C":-0.28}
{"gene":"MMP8","mean z-score":0.1,"z-score, replicate A":0.16,"z-score, replicate B":-0.21,"z-score, replicate C":0.35}
{"gene":"OCM2","mean z-score":0.53,"z-score, replicate A":0.67,"z-score, replicate B":0.42,"z-score, replicate C":0.51}

Next part; the last 2 above are carried over.
{"gene":"MMP8","mean z-score":0.1,"z-score, replicate A":0.16,"z-score, replicate B":-0.21,"z-score, replicate C":0.35}
{"gene":"OCM2","mean z-score":0.53,"z-score, replicate A":0.67,"z-score, replicate B":0.42,"z-score, replicate C":0.51}
{"gene":"MCM6","mean z-score":-0.09,"z-score, replicate A":0.09,"z-score, replicate B":0.08,"z-score, replicate C":-0.43}
{"gene":"PRPF8","mean z-score":0.47,"z-score, replicate A":0.38,"z-score, replicate B":0.5,"z-score, replicate C":0.54}
{"gene":"SLC18A1","mean z-score":0.16,"z-score, replicate A":0.46,"z-score, replicate B":0.12,"z-score, replicate C":-0.1}
{"gene":"PCDHA1","mean z-score":-0.46,"z-score, replicate A":-0.42,"z-score, replicate B":-0.66,"z-score, replicate C":-0.31}
{"gene":"PDK1","mean z-score":0.91,"z-score, replicate A":0.97,"z-score, replicate B":0.55,"z-score, replicate C":1.22}
{"gene":"SLC26A5","mean z-score":-0.27,"z-score, replicate A":-0.06,"z-score, replicate B":-0.32,"z-score, replicate C":-0.44}
{"gene":"HBM","mean z-score":-0.2,"z-score, replicate A":-0.16,"z-score, replicate B":-0.34,"z-score, replicate C":-0.1}
{"gene":"MRPS18C","mean z-score":-0.14,"z-score, replicate A":-0.21,"z-score, replicate B":0.05,"z-score, replicate C":-0.26}
{"gene":"CLTRN","mean z-score":"2.4 (active)","z-score, replicate A":2.54,"z-score, replicate B":2.12,"z-score, replicate C":2.55}
{"gene":"KRT8P11","mean z-score":0.55,"z-score, replicate A":1.05,"z-score, replicate B":0.08,"z-score, replicate C":0.54}
{"gene":"KRT71","mean z-score":0.03,"z-score, replicate A":-0.05,"z-score, replicate B":0.44,"z-score, replicate C":-0.31}
{"gene":"LRIT2","mean z-score":-0.43,"z-score, replicate A":-0.49,"z-score, replicate B":-0.36,"z-score, replicate C":-0.44}
{"gene":"CLK4","mean z-score":-0.67,"z-score, replicate A":-0.4,"z-score, replicate B":-1,"z-score, replicate C":-0.6}
{"gene":"E2F4","mean z-score":0.94,"z-score, replicate A":0.8,"z-score, replicate B":0.86,"z-score, replicate C":1.17}
{"gene":"BLOC1S1","mean z-score":-1.08,"z-score, replicate A":-0.97,"z-score, replicate B":-1.15,"z-score, replicate C":-1.11}
